Data as given in PubChem BioAssay AID624099 (ICCB-Longwood, 2012)
This is a random part of about 21,000 deposited reagents. Of all reagents, 497 (2.4%) were called active. 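Higher z means weaker E2 silencing; only reporter increases were scored, and knock-downs that hurt cell survival may mask genuine repressor factors.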 A number with no mark means an inactive call. The numbers tell different reagents against one gene apart.

Assay: 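Host factors E2 relies on to silence an HPV18 LCR reporter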 (primary screen)
Cell system: human C33A cervical carcinoma cells (HPV-negative) stably expressing BPV1 E2 and an HPV18 LCR luciferase reporter
Knock-down reagent: siRNA pool against human genes, 40 nM
Time to read-out: 72 h
Read-out: 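Per-well luciferase luminescence, z-scored on each plate against the plate mean and SD with control wells left out, then averaged across three replicate plates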
Reading the numbers: mean z-score and z-score: higher = stronger reporter signal, weaker E2 silencing
Active means: 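Hit if mean z-score reaches 2 and two or more of three replicate z-scores also reach 2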

Target gene	pool no.	mean z-score	z-score, replicate A	z-score, replicate B	z-score, replicate C
RSAD2 (radical S-adenosyl methionine domain containing 2)	1	-0.67	-0.45	-0.67	-0.88
TJAP1 (tight junction associated protein 1)	1	-0.65	-0.65	-0.49	-0.81
CALN1 (calneuron 1)	1	1.69	1.34	1.56	2.18
ARRB2 (arrestin beta 2)	1	0.2	0.31	0	0.31
RFWD3 (ring finger and WD repeat domain 3)	1	0.3	0.12	-0.04	0.83
ACOT2 (acyl-CoA thioesterase 2)	1	-0.46	-0.48	-0.83	-0.09
SERTAD4 (SERTA domain containing 4)	1	-0.63	-0.4	-0.78	-0.72
LGALS3 (galectin 3)	1	1.62	1.39	1.54	1.94
LGALS3 (galectin 3)	2	0.98	0.85	1.1	1
FOXN1 (forkhead box N1)	1	-1.23	-1.04	-1.47	-1.2
GPR137C (G protein-coupled receptor 137C)	1	-1.05	-0.93	-1.33	-0.88
CCDC181 (coiled-coil domain containing 181)	1	-0.76	-1	-0.34	-0.95
NCR2 (natural cytotoxicity triggering receptor 2)	1	1.23	1.38	1.46	0.84
SENP2 (SUMO specific peptidase 2)	1	-0.44	-0.86	-0.5	0.04
PMCHL1 (pro-melanin concentrating hormone like 1 (pseudogene))	1	0.87	1.06	0.89	0.67
DPYSL5 (dihydropyrimidinase like 5)	1	1.78	1.79	1.89	1.68
ZNF526 (zinc finger protein 526)	1	0.87	0.98	1.09	0.54
NAGK (N-acetylglucosamine kinase)	1	-0.1	-0.15	-0.16	0
CYB561 (cytochrome b561)	1	0.8	1.63	0.37	0.41
COQ6 (coenzyme Q6, monooxygenase)	1	-0.27	-0.51	0.12	-0.44
ZNF20 (zinc finger protein 20)	1	0.37	0.57	0.4	0.14
TNR (tenascin R)	1	0.27	0.29	0.36	0.16
CLPP	1	-1.18	-0.87	-1.5	-1.17
LRRC61 (leucine rich repeat containing 61)	1	0.69	0.29	0.81	0.97
ABCA8 (ATP binding cassette subfamily A member 8)	1	-0.34	-0.58	-0.3	-0.15
RNF121 (ring finger protein 121)	1	1.1	0.62	1.16	1.52
CLEC2D (C-type lectin domain family 2 member D)	1	0.96	0.84	1.11	0.94
LOC388604 (retired record)	1	-0.07	-0.01	-0.26	0.07
UNC93B3 (unc-93 homolog B3 (pseudogene))	1	-0.16	-0.35	-0.14	0
MON1B (MON1 vesicular trafficking associated B)	1	0.46	0.18	0.64	0.57
SSU72L1 (SSU72 like 1)	1	0.13	0.07	0.35	-0.03
HOXD4 (homeobox D4)	1	0.04	0.21	-0.22	0.12
MAVS (mitochondrial antiviral signaling protein)	1	-1.06	-1.1	-0.83	-1.24
NSG2 (neuronal vesicle trafficking associated 2)	1	0.78	0.49	0.81	1.04
DHX9 (DExH-box helicase 9)	1	-0.22	-0.22	-0.17	-0.27
CHRNA2 (cholinergic receptor nicotinic alpha 2 subunit)	1	-0.6	-0.66	-0.65	-0.49
AKR1C8 (aldo-keto reductase family 1 member C8)	1	1.87	2.02	1.94	1.66
LOC388689 (retired record)	1	-0.09	-0.24	-0.19	0.16
BCAS3 (BCAS3 microtubule associated cell migration factor)	1	-0.04	-0.34	0.08	0.15
SPATA31E1 (SPATA31 subfamily E member 1)	1	0.61	1.18	0.17	0.48
C9orf152 (chromosome 9 open reading frame 152)	1	0.59	0.67	0.69	0.4
LOC642846 (DEAD/H (Asp-Glu-Ala-Asp/His) box polypeptide 11-like)	1	-0.43	-0.39	-0.12	-0.77
HAVCR1 (hepatitis A virus cellular receptor 1)	1	0.75	0.91	0.64	0.7
LINC00523 (long independently transcribed non-coding RNA 523)	1	-0.45	-0.69	-0.56	-0.1
FOXRED1 (FAD dependent oxidoreductase domain containing 1)	1	0.72	0.94	0.73	0.48
BRPF3 (bromodomain and PHD finger containing 3)	1	0.35	0.75	0.4	-0.11
QPCT (glutaminyl-peptide cyclotransferase)	1	0.41	0.27	0.46	0.5
FOSL1 (FOS like 1, AP-1 transcription factor subunit)	1	2.65 (active)	3.03	2.56	2.37
PRKAA2 (protein kinase AMP-activated catalytic subunit alpha 2)	1	-0.26	-0.31	0	-0.46
LOC388270 (retired record)	1	-1.65	-1.3	-1.4	-2.24
TRA2A (transformer 2 alpha homolog)	1	0.81	0.9	1.31	0.21
OR4C15 (olfactory receptor family 4 subfamily C member 15)	1	-0.11	-0.14	-0.29	0.11
MCCC2 (methylcrotonyl-CoA carboxylase subunit 2)	1	-0.2	-0.29	0.05	-0.37
OSBPL5 (oxysterol binding protein like 5)	1	1.03	1.04	1.33	0.73
TRIM35 (tripartite motif containing 35)	1	0.15	0.07	0.57	-0.2
ZMAT1 (zinc finger matrin-type 1)	1	-0.51	-0.61	-0.34	-0.57
SNRPD2 (small nuclear ribonucleoprotein D2 polypeptide)	1	-1.17	-1.61	-1.24	-0.66

Limited to “mean z-score” (7 entries from above):
ZNF526 (zinc finger protein 526): 0.87
NAGK (N-acetylglucosamine kinase): -0.1
CYB561 (cytochrome b561): 0.8
COQ6 (coenzyme Q6, monooxygenase): -0.27
ZNF20 (zinc finger protein 20): 0.37
TNR (tenascin R): 0.27
CLPP: -1.18
